Anti-infective test results gathered from many reports (values: NIAID ChemDB through PubChem).

All rows: target-level tests; species: HIV-1; protein: Reverse transcriptase

Lines come from different laboratories, so protocols vary. Two numbers with a dash give a range or band. Blank or dashed fields: not listed here. ICn: concentration for n% inhibition.

| compound | read-out | read by | mutations | strain or isolate | result |
|---|---|---|---|---|---|
| CS(=O)(=O)Nc1cccnc1N1CCN(C(=O)c2cc3ccccc3[nH]2)CC1 | IC50 | nucleotide incorporation |  |  | >100 µM |
| CCN1c2ncc(CCOc3ccc4c(c3)CN(C)C(=O)N4C)cc2C(=O)N(C)c2cccnc21 | IC50 | nucleotide incorporation / radiometric | RT-K103N Y181C | IIIB | >0.1 µM |
| O=S(=O)(O)c1ccc2c(OS(=O)(=O)c3cccc4c(S(=O)(=O)Oc5cc(S(=O)(=O)O)cc6cc(S(=O)(=O)O)ccc56)cccc34)cc(S(=O)(=O)O)cc2c1 | IC50 | RT activity |  |  | <50 µM |
| CCc1ccc(-n2c(Br)nnc2SCC(=O)Nc2ccc(C(=O)NCC(=O)O)cc2Cl)c2ccccc12 | IC50 | nucleotide incorporation / radiometric | RT-Y181C |  | <0.05 µM |
| Nc1nc2c(ncn2[C@H]2CC[C@@H](COP(=O)(O)OP(=O)(O)OP(=O)(O)O)O2)c(=O)[nH]1 | IC50 | nucleotide incorporation / radiometric | RT-A62V V75I F77L F116Y Q151M |  | 0.11 µM |
| CCN1c2ncc(CCOc3cccc4c3CNC(=O)N4C)cc2C(=O)N(C)c2cccnc21 | IC50 | nucleotide incorporation / radiometric | RT-K103N Y181C | IIIB | <0.05 µM |
| Cc1cc(C)cc(S(=O)(=O)c2c(C(N)=O)[nH]c3ccc(Cl)c(F)c23)c1 | Ki | RT activity / nucleotide incorporation | WT |  | 0.006 µM |
| CCN1c2ncc(CCOc3cccc4c3CN(C)C(=O)N4C)cc2C(=O)N(C)c2cccnc21 | IC50 | nucleotide incorporation / radiometric |  | IIIB | <0.05 µM |
| O=C(CSc1nnnn1-c1ccc(C(F)(F)F)cc1Cl)Nc1ccc(-c2ccc(OCCN3CCCCC3)cc2)cc1Cl | IC50 | PicoGreen / fluorescence |  | WT | <1 µM |
| CC(C)OC(=O)CNC(=O)c1ccc(NC(=O)CSc2nnc(Br)n2-c2ccc(C3CC3)c3ccccc23)c(Cl)c1 | IC50 | nucleotide incorporation / radiometric | RT-Y188L |  | <0.05 µM |
| CCNC(=O)NC(C)(C)C#Cc1ccc(NC(=O)CSc2nnnn2-c2ccc(C3CC3)cc2Cl)c(Cl)c1 | IC50 | PicoGreen / fluorescence | RT-K103 Y181C |  | <1 µM |
| Cc1cc(C)cc(S(=O)(=O)c2c(C(=O)NCCOc3ccccc3)[nH]c3ccc(Cl)c(F)c23)c1 | Ki | RT activity / nucleotide incorporation | Y181C |  | 0.029 µM |
| CCN1c2ncc(CCOc3cccc4c3CNC4=O)cc2C(=O)Nc2c(C)ccnc21 | IC50 | nucleotide incorporation / radiometric | RT-K103N Y181C | IIIB | >0.1 µM |
| CC(=O)Nc1ccc2[nH]c(C(=O)N3CCN(c4ncccc4NC(C)C)CC3)cc2c1 | IC50 | nucleotide incorporation |  |  | <100 µM |
| CC(C)(C#Cc1ccc(NC(=O)CSc2nnnn2-c2cc(C(C)(C)C)cc(Br)c2Cl)c(Cl)c1)NC(=O)CN1CCC(C(=O)O)CC1 | IC50 | PicoGreen / fluorescence | RT-K103 Y181C |  | <1 µM |
| O=C1OCC2OC(=O)c3cc(O)c(O)c(O)c3-c3c(O)c(O)c(O)c4c3C(=O)OC(C2OC(=O)c2cc(O)c(O)c(O)c2-c2c1cc(O)c(O)c2O)C1OC(=O)C2C4=C(O)C(=O)C23Oc2cc(O)c4c(c2C13)O[C@H](c1ccc(O)c(O)c1)C(O)C4 | IC50 | nucleotide incorporation |  |  | >20 µg/mL |
| COc1ccc2cccc(-n3c(Br)nnc3SCC(=O)Nc3ccc(C(=O)O)cc3Cl)c2c1 | IC50 | nucleotide incorporation / radiometric |  |  | <0.05 µM |
| Nc1ncnc2c1ncn2[C@H]1CC[C@@H](COP(=O)(O)OP(=O)(O)OP(=O)(O)O)O1 | IC50 | nucleotide incorporation |  |  | >100 µM |
| O=C1OCC2OC(=O)c3cc(O)c(O)c(O)c3-c3c(O)c(O)c(O)c4c3C(=O)OC(C2OC(=O)c2cc(O)c(O)c(O)c2-c2c1cc(O)c(O)c2O)C1OC(=O)c2c-4c(O)c(O)c(O)c2C1c1c(O)cc(O)c2c1O[C@H](c1ccc(O)c(O)c1)C(O)C2 | IC50 | nucleotide incorporation |  |  | >20 µg/mL |
| Cc1cc(F)c(-n2nnnc2SCC(=O)Nc2ccc(-c3ccc(C(C)(C)C(=O)O)cc3)cc2Cl)c(Cl)c1 | IC50 | PicoGreen / fluorescence | RT-K103 Y181C |  | <1 µM |
| Nc1ccn([C@@H]2CS[C@H](COP(=O)(O)OP(=O)(O)OP(=O)(O)O)O2)c(=O)n1 | Ki | nucleotide incorporation | RT-K65R |  | 1.4 µM |
| CCNc1cccnc1N1CCN(Cc2ccc(OC)cc2)CC1 | IC50 | nucleotide incorporation |  |  | >100 µM |
| O=C(O)Cc1ccc(-c2ccc(NC(=O)CSc3nnnn3-c3ccc4ncsc4c3Cl)c(Cl)c2)cc1 | IC50 | PicoGreen / fluorescence | RT-K103 Y181C |  | <1 µM |
| c1ccc2c(c1)CCN(c1nn3c(-c4cscn4)nnc3c3ccccc13)C2 | IC50 | RT activity / fluorescence |  | KER2008 | 1.39 µM |
| CCN1c2ncc(CCOc3ccc(NC(=O)CCC(=O)O)c4ccccc34)cc2C(=O)N(C)c2cccnc21 | IC50 | nucleotide incorporation / radiometric |  | WT | <0.1 µM |
| Cc1cc(C2CC2)cc(C)c1-n1c(Br)nnc1SCC(=O)Nc1ccc(C(=O)O)cc1Cl | IC50 | nucleotide incorporation / radiometric | RT-Y181C |  | <0.05 µM |
| CCN1c2ncc(CCOc3ccc4cc(CC(=O)O)ccc4c3C)cc2C(=O)N(C)c2cccnc21 | IC50 | nucleotide incorporation / radiometric | RT-V106A |  | 0.1–1 µM |
| CC(=O)Nc1cccnc1N1CCN(C(=O)c2cc3ccccc3[nH]2)CC1 | IC50 | nucleotide incorporation |  |  | >100 µM |
| CCN1c2ncc(CCOc3ccc(C(=O)O)c4c3CCCC4)cc2C(=O)N(C)c2ccc(F)nc21 | IC50 | nucleotide incorporation / radiometric |  | WT | <0.1 µM |
| Cc1nnc2c3c(c(N4CCc5ccccc5C4)nn12)C1CCC3CC1 | IC90 | RT activity / fluorescence |  | IIIB | 19.4 µM |
| CC(C)(C)c1ccc(-n2nnnc2SCC(=O)Nc2ccc(-c3ccc(OCC(=O)O)c(F)c3)cc2Cl)c(Cl)c1 | IC50 | PicoGreen / fluorescence |  | WT | <1 µM |
| CCc1ccc(-n2c(Br)nnc2SCC(=O)Nc2ccc(C(=O)N[C@@H](CO)C(=O)OC)cc2Cl)c2ccccc12 | IC50 | nucleotide incorporation / radiometric | RT-Y181C |  | <0.05 µM |
| O=S(=O)(O)c1cccc2ccc(OS(=O)(=O)c3ccc(-c4ccc(S(=O)(=O)Oc5ccc6cccc(S(=O)(=O)O)c6c5)cc4)cc3)cc12 | IC50 | RT activity |  |  | <50 µM |
| CC(C)(C)c1ccc(-n2nnnc2SCC(=O)Nc2ccc(C#CCN3CCCC3)cc2Cl)c(Cl)c1 | IC50 | PicoGreen / fluorescence |  | WT | <1 µM |
| CCN1c2ncc(CCOc3ccc4on(C(C)(C)C)c(=O)c4c3)cc2C(=O)Nc2c(C)cc(F)nc21 | IC50 | nucleotide incorporation / radiometric | RT-K103N Y181C | IIIB | >0.1 µM |
| CCN1c2ncc(CCOc3ccc4cc(C(=O)NN)ccc4c3)cc2C(=O)N(C)c2cccnc21 | IC50 | nucleotide incorporation / radiometric | RT-K103N Y181C |  | 0.1–1 µM |
| O=C(O)C1=C[C@@H](O)[C@@H](O)[C@H](OC(=O)c2cc(O)c(O)c(O)c2)C1 | IC50 | nucleotide incorporation |  |  | >20 µg/mL |
| Cc1cc(C)c(S(=O)(=O)Nc2cc(C(=O)O)c(O)c(S(=O)(=O)O)c2)c(C)c1S(=O)(=O)Nc1cc(C(=O)O)c(O)c(S(=O)(=O)O)c1 | IC50 | RT activity |  |  | <50 µM |
| Cc1cc(C(F)(F)F)cc(-n2nnnc2SCC(=O)Nc2ccc(C#CC(C)(C)C(=O)O)cc2Cl)c1Cl | IC50 | PicoGreen / fluorescence | RT-K103 Y181C |  | <1 µM |
| CCCCCCCCCCCCCCCC(=O)Nc1ccc(S(=O)(=O)O)c2cccc(S(=O)(=O)O)c12 | IC50 | RT activity |  |  | <50 µM |
| CC(C)(C#Cc1ccc(NC(=O)CSc2nnnn2-c2ccc(C3CC3)cc2Cl)c(Cl)c1)NC(=O)c1ccccc1 | IC50 | PicoGreen / fluorescence |  | WT | <1 µM |
| O=C(CSc1nnc(Br)n1-c1ccc(C2CC2)cc1C(F)(F)F)Nc1ccc(C(=O)O)cc1Cl | IC50 | nucleotide incorporation / radiometric | RT-Y181C |  | 0.05–0.1 µM |
| CC(C)c1nnc2c3ccccc3c(N3CCc4ccccc4C3)nn12 | IC50 | RT activity / fluorescence |  | 98US_MSC5016 | 5.31 µM |
| CC1(C)CN(CCOC(C)(C)C#Cc2ccc(NC(=O)CSc3nnnn3-c3ccc(C4CC4)cc3Cl)c(Cl)c2)C=N1 | IC50 | PicoGreen / fluorescence | RT-K103 Y181C |  | <1 µM |
| CCN1c2ncc(CCOc3cccc4[nH]c(=O)n(C)c34)cc2C(=O)N(C)c2cccnc21 | IC50 | nucleotide incorporation / radiometric |  | IIIB | 0.05–0.1 µM |
| CC(C)(C#Cc1ccc(NC(=O)CSc2nnnn2-c2ccc(C3CC3)cc2Cl)c(Cl)c1)OCCN1CCNCC1 | IC50 | PicoGreen / fluorescence |  | WT | <1 µM |
| CCc1ccc(-n2c(Br)nnc2SCC(=O)Nc2ccc(C(=O)O)cc2C)c2ccccc12 | IC50 | nucleotide incorporation / radiometric | RT-Y181C |  | 0.05–0.1 µM |
| CC(C)(C#Cc1ccc(NC(=O)CSc2nnnn2-c2ccc(C(C)(C)C)cc2Cl)c(Cl)c1)OCC(=O)N1CCC(C(=O)O)CC1 | IC50 | PicoGreen / fluorescence |  | WT | <1 µM |
| Cc1nnc2n1CCN(c1nn3c(C4CC4)nnc3c3ccccc13)C2 | IC50 | RT activity / fluorescence |  | IIIB | >100 µM |
| CC(C)(C#Cc1ccc(NC(=O)CSc2nnnn2-c2ccc(CC3CC3)cc2Cl)c(Cl)c1)NC(=O)c1cc[n+]([O-])cc1 | IC50 | PicoGreen / fluorescence | RT-K103 Y181C |  | <1 µM |
| CCN1c2ncc(CCOc3ccc(NS(=O)(=O)C(F)(F)F)c4ccccc34)cc2C(=O)N(C)c2ccc(F)nc21 | IC50 | nucleotide incorporation / radiometric |  | WT | <0.1 µM |
| CC(C)(C)c1ccc(-n2nnnc2SCC(=O)Nc2ccc(OCC(=O)NC3CCN(Cc4ccccc4)CC3)cc2Cl)c(Cl)c1 | IC50 | PicoGreen / fluorescence |  | WT | <1 µM |
| COc1cccc2[nH]c(C(=O)N3CCN(c4ncccc4NC(C)C)CC3)cc12 | IC50 | nucleotide incorporation |  |  | <100 µM |
| CN1CCN(CC2(C#Cc3ccc(NC(=O)CSc4nnnn4-c4ccc(C5CC5)cc4Cl)c(Cl)c3)CC2)CC1 | IC50 | PicoGreen / fluorescence | RT-K103 Y181C |  | <1 µM |
| CCN1c2ncc(CCOc3ccc(CCC(=O)O)c4ccccc34)cc2C(=O)Nc2c(C)cc(F)nc21 | IC50 | nucleotide incorporation / radiometric | RT-Y188L |  | >1 µM |
| CN(CCc1ccncc1)C(=O)COc1ccc(NC(=O)CSc2nnnn2-c2ccc(C3CC3)cc2Cl)c(Cl)c1 | IC50 | PicoGreen / fluorescence | RT-K103 Y181C |  | <1 µM |
| CCN1c2ncc(CCOc3cccc4c3CNC(=O)O4)cc2C(=O)N(C)c2cccnc21 | IC50 | nucleotide incorporation / radiometric |  | IIIB | <0.05 µM |
| CC(C)Nc1cccnc1N(C)CCCCCCN(C)C(=O)c1cc2ccccc2[nH]1 | IC50 | nucleotide incorporation |  |  | <100 µM |
| CC(C)(C#Cc1ccc(NC(=O)CSc2nnnn2-c2cc(CC3CC3)ccc2Cl)c(Cl)c1)C(=O)O | IC50 | PicoGreen / fluorescence | RT-K103 Y181C |  | <1 µM |
| O=C(OC[C@H]1O[C@@H](OC(=O)c2cc(O)c(O)c(O)c2)[C@H](OC(=O)c2cc(O)c(O)c(O)c2)[C@@H](OC(=O)c2cc(O)c(O)c(O)c2)[C@@H]1O)c1cc(O)c(O)c(O)c1 | IC50 | nucleotide incorporation |  |  | >20 µg/mL |
| Cc1nnc(SCC(=O)Nc2ccc(-c3ccc(OCCN4CCCC4)cc3)cc2Cl)n1-c1ccc(C2CC2)cc1Cl | IC50 | PicoGreen / fluorescence |  | WT | <1 µM |
| O=C(O[C@@H]1O[C@@H]2COC(=O)c3cc(O)c(O)c(O)c3-c3c(cc(O)c(O)c3O)C(=O)O[C@H]2[C@@H]2OC(=O)c3cc(O)c(O)c(O)c3-c3c(cc(O)c(O)c3O)C(=O)O[C@@H]12)c1cc(O)c(O)c(O)c1 | IC50 | nucleotide incorporation |  |  | >20 µg/mL |
| CC(C)(N)C#Cc1ccc(NC(=O)CSc2nnnn2-c2cc(Br)ccc2Cl)c(Cl)c1 | IC50 | PicoGreen / fluorescence | RT-K103 Y181C |  | <1 µM |
| O=C(O)C1=C[C@@H](O)[C@@H](O)[C@H](OC(=O)c2cc(O)c(O)c(OC(=O)c3cc(O)c(O)c(O)c3)c2)C1 | IC50 | nucleotide incorporation |  |  | >20 µg/mL |
| Cc1ccc(-c2c(OCC(=O)Nc3ccc(C#CC(C)(C)C(=O)O)cc3Cl)n[nH]c2C)c(Cl)c1 | IC50 | PicoGreen / fluorescence | RT-K103 Y181C |  | <1 µM |
| Nc1ncnc2c1ncn2[C@H]1CC[C@@H](COP(=O)(O)OP(=O)(O)OP(=O)(O)O)O1 | IC50 | nucleotide incorporation / radiometric | RT-Q151M |  | 11 µM |

Again, the opening 4 rows:

compound,read-out,read by,mutations,strain or isolate,result
CS(=O)(=O)Nc1cccnc1N1CCN(C(=O)c2cc3ccccc3[nH]2)CC1,IC50,nucleotide incorporation,,,>100 µM
CCN1c2ncc(CCOc3ccc4c(c3)CN(C)C(=O)N4C)cc2C(=O)N(C)c2cccnc21,IC50,nucleotide incorporation / radiometric,RT-K103N Y181C,IIIB,>0.1 µM
O=S(=O)(O)c1ccc2c(OS(=O)(=O)c3cccc4c(S(=O)(=O)Oc5cc(S(=O)(=O)O)cc6cc(S(=O)(=O)O)ccc56)cccc34)cc(S(=O)(=O)O)cc2c1,IC50,RT activity,,,<50 µM
CCc1ccc(-n2c(Br)nnc2SCC(=O)Nc2ccc(C(=O)NCC(=O)O)cc2Cl)c2ccccc12,IC50,nucleotide incorporation / radiometric,RT-Y181C,,<0.05 µM